A mixed list of measured activities; the numbers were collected in NIAID ChemDB.

Shared fields: whole-cell or culture tests

ECn is the concentration giving n% inhibition of infection, replication or growth. Blank or dashed fields: not listed here. Rows are shuffled and stem from different studies. Inhibition is in % at the dose shown (toxicity tests: loss of growth or viability).

smiles,species,tested at,strain or isolate,read-out,cell line,read by,result
NC[C@@H]1O[C@H](O[C@H]2[C@@H](O)[C@H](O[C@@H]3[C@@H](O)[C@H](N)C[C@H](N)[C@H]3O[C@H]3O[C@H](CO)[C@@H](O)[C@H](O)[C@H]3N)O[C@@H]2CO)[C@H](N)[C@@H](O)[C@@H]1O,Cryptosporidium parvum,50 µg/mL,-,inhibition,-,-,37%
Nc1ccc(S(=O)(=O)Nc2cnc3ccccc3n2)cc1,Cryptosporidium parvum,4 µg/mL,Human isolate,inhibition,L929,-,83.15%
CC(C)(C)C1CCC(CN2C3=NC[C@@H](C4CCCCC4)N3C[C@@H]2CC2CCCCC2)CC1,Cryptococcus neoformans,-,ATCC 32045,EC50,-,-,2.8 µg/mL
COC(=O)c1cc(O)c(O)c(O)c1,Cryptococcus neoformans,-,ATCC 208821,MLC,-,broth dilution,>200 µg/mL
NC(=O)c1ncn([C@@H]2O[C@H](CO)[C@@H](O)[C@H]2O)n1,Cryptosporidium parvum,25 µg/mL,-,inhibition,-,-,73%
N/C(=N\N=C\c1ccc(Cl)cc1)N/N=C/c1ccc(Cl)cc1,Cryptosporidium parvum,0.8 µg/mL,Human isolate,inhibition,L929,-,10.05%
CC(C)(C)C1CCC(CN2C3=NC[C@@H](C4CCCCC4)N3C[C@H]2CC2CCCCC2)CC1,Cryptococcus neoformans,-,ATCC 32045,EC50,-,-,4.7 µg/mL
COC(=O)Nc1nc2ccccc2[nH]1,Cryptococcus neoformans,-,IU8698,EC50,-,-,1.5 µg/mL
O=C(O)c1cc(O)c(O)c(O)c1,Cryptococcus neoformans,-,ATCC 208821,MLC,-,broth dilution,200 µg/mL
CC(C)[C@H](NC(=O)[C@H](CCCN=C(N)N)NC(=O)N[C@@H](Cc1ccccc1)C(=O)O)C(=O)N[C@H](C=O)CCCN=C(N)N,Cryptosporidium parvum,5 µg/mL,-,inhibition,-,cell count / microscopy,32.3%
CC1(C)C=C2C3CCC4[C@@]5(C)CCC(O)C(C)(C)C5CC[C@@]4(C)[C@]3(C)CC[C@@]2(C(=O)O)CC1,Cryptococcus neoformans,-,ATCC 208821,MIC,-,broth dilution,>200 µg/mL
CC(C)[C@H](NC(=O)[C@H](CCCN=C(N)N)NC(=O)N[C@@H](Cc1ccccc1)C(=O)O)C(=O)N[C@H](C=O)CCCN=C(N)N,Cryptosporidium parvum,50 µg/mL,-,inhibition,-,-,57.87%
C[C@@H]1[C@H](O)[C@@H](C)/C=C/C=C/C=C/C=C/C=C/C=C/C=C/[C@H](O[C@@H]2O[C@H](C)[C@@H](O)[C@H](N)[C@@H]2O)C[C@@H]2O[C@](O)(C[C@@H](O)[C@H](O)CC[C@@H](O)C[C@@H](O)C[C@@H](O)CC(=O)O[C@H]1C)C[C@H](O)[C@H]2C(=O)O,Cryptococcus humicolus,-,ATCC 9949,MIC,-,broth dilution,2 µg/mL
Nc1nc(=O)n([C@H]2C[C@H](O)[C@@H](CO)O2)cc1I,Cryptosporidium parvum,25 µg/mL,-,inhibition,-,-,92%
C1CCC([C@H]2CN3C(=NC[C@@H]3C3CCCCC3)N2CCC23CC4CC(CC(C4)C2)C3)CC1,Cryptococcus neoformans,-,ATCC 32045,EC50,-,-,2.2 µg/mL
COc1cc(O)c2c(c1)OC(c1ccc(O)cc1)CC2=O,Cryptococcus gattii,-,NIH312,MIC,-,broth dilution,320 µg/mL
O=c1c(O)c(-c2ccc(O)c(O)c2)oc2cc(O)cc(O)c12,Cryptococcus neoformans,-,ATCC 208821,MLC,-,broth dilution,200 µg/mL
O=c1[nH]c(=O)n([C@H]2C[C@H](O)[C@@H](CO)O2)cc1I,Cryptosporidium parvum,1 µg/mL,-,inhibition,-,-,57%
C[C@@H]1[C@H](O)[C@@H](C)/C=C/C=C/CC/C=C/C=C/C=C/C=C/C(O[C@H]2O[C@H](C)[C@@H](O)[C@H](N)[C@@H]2O)CC2O[C@](O)(CC(O)C(O)CCC(O)CC(O)CC(O)CC(=O)O[C@H]1C)CC(O)C2C(=O)O,Cryptococcus spp.,-,CCUG 18919,MIC,-,-,8 µg/mL
Cc1cn([C@H]2C[C@H](N=[N+]=[N-])[C@@H](CO)O2)c(=O)[nH]c1=O,Cryptosporidium parvum,50 µg/mL,-,inhibition,-,-,14%
CC(C)(C)C1CCC(CN2C3=NC[C@@H](C4CCCCC4)N3C[C@H]2C2CCCCC2)CC1,Cryptococcus neoformans,-,ATCC 32045,EC50,-,-,3.6 µg/mL

Again, the opening 3 rows:

{"smiles": "NC[C@@H]1O[C@H](O[C@H]2[C@@H](O)[C@H](O[C@@H]3[C@@H](O)[C@H](N)C[C@H](N)[C@H]3O[C@H]3O[C@H](CO)[C@@H](O)[C@H](O)[C@H]3N)O[C@@H]2CO)[C@H](N)[C@@H](O)[C@@H]1O", "species": "Cryptosporidium parvum", "tested at": "50 µg/mL", "read-out": "inhibition", "result": "37%"}
{"smiles": "Nc1ccc(S(=O)(=O)Nc2cnc3ccccc3n2)cc1", "species": "Cryptosporidium parvum", "tested at": "4 µg/mL", "strain or isolate": "Human isolate", "read-out": "inhibition", "cell line": "L929", "result": "83.15%"}
{"smiles": "CC(C)(C)C1CCC(CN2C3=NC[C@@H](C4CCCCC4)N3C[C@@H]2CC2CCCCC2)CC1", "species": "Cryptococcus neoformans", "strain or isolate": "ATCC 32045", "read-out": "EC50", "result": "2.8 µg/mL"}